Pooled drug test results. Numbers come from NIAID ChemDB, via PubChem.

Common to all: host cell toxicity; cells: MDBK; measure: CC50

CCn is the concentration with n% toxicity to the cells. Rows are shuffled and stem from different studies. Blank or dashed fields: not listed here.

structure	method	value
CCC(C)CCC[C@H](C)CCN1C[C@H](O)[C@@H](O)[C@H](O)[C@H]1CO	-	500 µM
COC(=O)Cc1c(O)c2c(c(C)c1OC)COC2=O	-	>100 µM
OC[C@@H]1CC[C@H](n2cnc3c(NC4CCCCCC4)nc(Cl)nc32)O1	-	315 µM
COc1c(C)c2c(c(O)c1C/C=C(\C)COP(=O)(O)CP(=O)(O)OC[C@H]1O[C@@H](n3cnc4c(N)ncnc43)[C@H](O)[C@@H]1O)C(=O)OC2	-	100 µM
OC[C@@H]1CC[C@H](n2cnc3c(NC4CC4)nc(Cl)nc32)O1	-	180 µM
COC(=O)/C(C)=C/Cc1c(O)c2c(c(C)c1OC)COC2=O	-	91 µM
CCCCCCCCCN1C[C@H](O)[C@@H](O)[C@H](O)[C@H]1CO	XTT	120 µM
COC(=O)CC/C(C)=C/Cc1c(O)c2c(c(C)c1OC)COC2=O	-	>100 µM
CCCC(=O)O[C@H]1CN2CC[C@H](O)[C@@H]2[C@@H](O)[C@@H]1O	-	>1000 µM
COc1c(C)c2c(c(O)c1C/C=C(\C)CO)C(=O)OC2	-	89 µM
OC[C@@H]1C[C@@H](O)[C@H](n2cnc3c(NC4CCCCC4)nc(Cl)cc32)O1	-	255 µM
CCC(C)CCC[C@@H](C)CCN1C[C@H](O)[C@@H](O)[C@H](O)[C@H]1CO	-	500 µM
Nc1nc(Cl)nc2c1ncn2[C@H]1CC[C@@H](CO)O1	-	<50 µM
CCCCCCCCCN1C[C@H](O)[C@@H](O)[C@H](O)[C@H]1CO	-	175 µM
OC[C@H]1O[C@@H](n2cnc3c(NC4CCCCCC4)cc(Cl)nc32)C[C@@H]1O	-	120 µM
OC[C@H]1NC[C@H](O)[C@@H](O)[C@@H]1O	-	>5000 µM
Nc1nc(Cl)nc2c1ncn2[C@@H]1O[C@H](CO)[C@@H](O)[C@H]1O	-	<50 µM
OC[C@@H]1[C@@H](O)[C@H](O)[C@@H](O)CN1CCCCCCCCCCN1C[C@H](O)[C@@H](O)[C@H](O)[C@H]1CO	-	1000 µM

The last 2 rows once more:

structure,method,value
Nc1nc(Cl)nc2c1ncn2[C@@H]1O[C@H](CO)[C@@H](O)[C@H]1O,-,<50 µM
OC[C@@H]1[C@@H](O)[C@H](O)[C@@H](O)CN1CCCCCCCCCCN1C[C@H](O)[C@@H](O)[C@H](O)[C@H]1CO,-,1000 µM